Pooled drug test results. Numbers come from NIAID ChemDB, via PubChem.

Shared fields: growth or infection tests; agent: Herpes simplex virus 1; cell line: VERO; read-out: EC50

Conditions beyond the fields shown may differ between rows.

smiles	strain	read by	result
Nc1nc2c(ncn2CCCCO)c(=O)[nH]1	-	-	0.6 µM
O=c1[nH]c(=O)n([C@H]2C[C@H](O)[C@@H](CO)O2)cc1/C=C/Br	-	cytopathic effect	<0.001 µg/mL
N#Cc1c(SCCCSc2nsc(-c3ccccc3)c2C#N)nsc1-c1ccccc1	-	plaque count	>4.76 µg/mL
C[C@@]1(O)[C@H](O)[C@@H](COP(=O)(O)OP(=O)(O)OP(=O)(O)O)O[C@H]1n1ccc2c(N)ncnc21	-	cytopathic effect	>320 µM
Nc1nc2c(ncn2COCCO)c(=O)[nH]1	KOS	plaque count	3.45 µg/mL
COc1ccc(C2CC(=O)Nc3nc(-c4ccncc4)nn32)cc1	7401H	plaque count	>50 µg/mL
CC(=O)Nc1ccc(NC(=S)NC(C)c2ccc(F)cc2)cc1	-	ELISA	>10 µg/mL
CSc1nsc(-c2ccccc2)c1C#N	-	plaque count	>4.64 µg/mL
Nc1nc2c(ncn2N2CC[C@H](CO)[C@H]2CO)c(=O)[nH]1	-	cytopathic effect	>100 µg/mL
NC1=NCCN1CC(=O)O	BW10168 (TK-)	cytopathic effect	4300 µM
CCOS(=O)c1nsc(-c2ccc(OCc3ccccc3)cc2)c1C#N	-	plaque count	>3.96 µg/mL
Oc1ccc(C(c2ccc(O)cc2)c2ccc(Cl)cc2)cc1	KOS	plaque count	1.8 µg/mL
O=C1CC(c2ccccc2)n2nc(-c3ccncc3)nc2N1	7401H	plaque count	>50 µg/mL
Oc1c(Br)cc(C(c2ccc(C(F)(F)F)cc2)c2cc(Br)c(O)c(Br)c2)cc1Br	KOS	plaque count	5.2 µg/mL
COc1ccc(C2CC(=O)Nc3nc(-c4ccc5ccccc5c4)nn32)cc1	7401H	plaque count	>50 µg/mL
CCOC(=O)c1ccc(OCCC2CCN(c3ccc(C)nn3)CC2)cc1	-	plaque count	>7 µg/mL
Nc1ncnc2c1ncn2C1C[C@@H](CO)[C@@H](CO)S1	-	cytopathic effect	>100 µg/mL
C[C@]1(Cn2cnc3c(=O)[nH]c(N)nc32)[C@H](COCP(=O)(O)O)C1(F)F	HF	-	>100 µM
Oc1ccc(C(c2ccc(O)cc2)c2ccc(C(F)(F)F)cc2)cc1	KOS	plaque count	4.2 µg/mL
O=c1[nH]c(=O)n([C@H]2C[C@H](O)[C@@H](CO)O2)cc1CCCl	-	cytopathic effect	<0.01 µg/mL
CCCc1nc2n(n1)C(c1ccc(OC)cc1)CC(=O)N2	7401H	plaque count	>50 µg/mL
CCN(CC)CC(=O)Nc1ccc(NC(=S)Nc2ccc(NC(C)=O)cc2)cc1Cl	-	ELISA	>10 µg/mL
O=c1[nH]c(=O)n([C@@H]2O[C@H](CO)[C@@H](O)[C@@H]2F)cc1I	-	cytopathic effect	<0.01 µg/mL
Cc1cn(C2OC[C@H](CO)[C@H]2CO)c(=O)[nH]c1=O	-	cytopathic effect	>100 µg/mL
CSc1nsc(-c2ccc(OCc3ccccc3)cc2)c1C#N	-	plaque count	>16.92 µg/mL
O=C1CC(c2ccc([N+](=O)[O-])cc2)n2nc(C3CCCCC3)nc2N1	7401H	plaque count	>50 µg/mL
Nc1nc2c(ncn2COCCO)c(=O)[nH]1	C42 (acyclovir-resistant)	plaque count	10 µM
Nc1ncnc2c1ncn2C1OC[C@H](CO)[C@H]1CO	-	cytopathic effect	>100 µg/mL
CCCCCc1nc2n(n1)C(c1ccc(OC)cc1)CC(=O)N2	7401H	plaque count	>50 µg/mL
COc1cc(OCc2ccccc2)c(NC(=S)Nc2ccc(NC(C)=O)cc2)cc1Cl	-	ELISA	7 µg/mL
C[C@]1(Cn2cnc3c(=O)[nH]c(N)nc32)[C@@H](COCP(=O)(O)O)C1(F)F	HF	-	>100 µM
Nc1nc2c(ncn2CCC(CO)CO)c(=O)[nH]1	KT2	plaque count	177.7 µM
COc1cc(NC(=O)c2ccccc2F)cc(C)c1NC(=S)NC(C)c1ccc(F)cc1	-	ELISA	>10 µg/mL
CCCc1nc2n(n1)C(c1ccc([N+](=O)[O-])cc1)CC(=O)N2	7401H	plaque count	>50 µg/mL
Nc1nc2c(ncn2CC[C@H](O)CO)c(=O)[nH]1	C915 TK-	plaque count	300 µM
Nc1nc(=O)n([C@@H]2O[C@H](CO)[C@@H](O)[C@@H]2F)cc1I	-	cytopathic effect	<0.01 µg/mL
O=C1CC(c2ccc([N+](=O)[O-])cc2)n2nc(-c3ccc4ccccc4c3)nc2N1	7401H	plaque count	>50 µg/mL

Repeating the first 2 entries:

Nc1nc2c(ncn2CCCCO)c(=O)[nH]1 ; result: 0.6 µM
O=c1[nH]c(=O)n([C@H]2C[C@H](O)[C@@H](CO)O2)cc1/C=C/Br ; read by: cytopathic effect ; result: <0.001 µg/mL

Blank or dashed fields: not listed here. ECn: concentration that inhibits the pathogen or its effect by n%.